The values below come from PubChem BioAssay AID651958 (The Scripps Research Institute Molecular Screening Center, 2012).

SMILES strings stand for the structures. The entries are a selection whose mix differs from that of the whole data set. Activity calls are given as the source filed them. Rule as the data show it: active = inhibition above about 30%; inactive = the rest.

The test system of this assay is Crimean-Congo hemorrhagic fever virus L polyprotein viral ovarian tumor (vOTU) protease domain. Kind of assay: CCHFV vOTU protease inhibitors, primary screen, biochemical, Pep-AMC substrate, fluorescence (AID 651958). Also: 0% = vehicle wells with enzyme and 100% = no enzyme wells. The note with it: at 11.5 µM, hits give high values.
Turning to `COC(=O)C1(C)COP(=O)(N2CCCC2)OC1` (centres undefined), the inhibition is inactive: 7.95%. The result for `CCC(C)N(CC(C)C)C(=S)SC(NC(C)=O)C(Cl)(Cl)Cl` (centres undefined) reads inactive: -2.19%; that for `CCOC(=O)c1ccc(NC(=O)C(C)(CCl)SC)cc1` (centres undefined), inactive: -2.76%; that for `O=C(OC1CN2CCC1CC2)c1cccc([N+](=O)[O-])c1` (centres undefined), inactive: 16.9%. `COc1ccc2nc(NP(=O)(c3ccccc3)c3ccccc3)sc2c1`: the inhibition is inactive: 3.18%. The result for `COc1cc(I)ccc1[As](=O)(O)O` reads inactive: 2.53%; that for `O=P1(N(CCCl)CCCl)OCCCN1CCCl` (centres undefined), inactive: -6.88%; that for `O=P1(N(CCCl)CCCl)Nc2ccccc2N1`, inactive: 17.7%. The figure for `O=C(OC1CN2CCC1CC2)C12CC3CC(CC(C3)C1)C2` (centres undefined) is inactive: 9.33%; for `Cc1cc(=O)[nH]c(N[N+](=O)[O-])n1` it is inactive: -10.3%.

Turning to `Cc1c2c(nc3ccccc13)SC(C(Cl)Cl)C2` (centres undefined), the inhibition is inactive: -9.68%. The figure for `COc1ccc(N/C(=N/P(=O)(N2CCOCC2)N2CCOCC2)N2CCOCC2)cc1` is inactive: 6.57%; for `O=[N+]([O-])c1cc(Oc2ccc([N+](=O)[O-])cc2C(F)(F)F)cc([N+](=O)[O-])c1` it is inactive: -15.1%; for `Cc1ccc2nc3c(c(C)c2c1)CC(C(Cl)Cl)S3` (centres undefined) it is inactive: 5.96%.

Turning to `Cc1ccc(OP(=O)(Nc2ccc([N+](=O)[O-])cn2)Oc2ccc(C)cc2)cc1`, the inhibition was inactive: -17.1%. As for `[N-]=[N+]=NC1CCCCC1NC(=O)c1cc([N+](=O)[O-])cc([N+](=O)[O-])c1` (centres undefined), the inhibition was inactive: -2.91%.

In the case of `C[As](=O)(O)c1cccc(C(=O)O)c1`, the inhibition was inactive: -2.97%. The result for `O=[As](O)(c1ccc(O)cc1)c1ccccc1O` reads inactive: -7.02%. The result for `COc1cc(C(=O)NCC2(N3CCOCC3)CCCCC2)ccc1OCC(C)C` reads inactive: -8.83%. The figure for `O=[N+]([O-])c1ccc(-c2cc([N+](=O)[O-])c(O)c([N+](=O)[O-])c2)cc1` is inactive: 9.76%.

As for `CCN(CC)C(=S)SC(NC=O)C(Cl)(Cl)Cl` (centres undefined), the inhibition was inactive: 5.43%. In the case of `O=C(OC1CN2CCC1CC2)c1cccc2[nH]cnc12` (centres undefined), the inhibition is inactive: 5.04%.

As for `CC(C)NC(=O)NP(=O)(Oc1ccccc1)Oc1ccccc1`, the inhibition is inactive: 5.65%. With `CC(C)c1ccc(OP(=O)(Nc2ccccn2)Oc2ccccc2F)cc1` (centres undefined), the inhibition is inactive: 2.35%. The figure for `COC(=O)C1(C)COP(=O)(N2CCCCCC2)OC1` (centres undefined) is inactive: 9.21%; for `ClCCSc1nnc(-c2cccnc2)o1` it is inactive: -11.9%; for `O=C(O)COc1ccc([As](=O)(O)O)cc1[N+](=O)[O-]` it is inactive: 4.43%. Take `Nc1ccccc1[As](=O)(O)c1ccccc1`: the inhibition is inactive: 3.49%. The figure for `CCOP1(=S)c2c(C)nn(CCC#N)c2N=C(c2ccccc2F)N1C` (centres undefined) is inactive: 7.71%; for `O=P(Nc1nccs1)(Oc1ccccc1)Oc1ccccc1` it is inactive: 4.63%; for `CN(C)C(=O)c1cc([N+](=O)[O-])cc2c1-c1c(cc([N+](=O)[O-])cc1[N+](=O)[O-])C2=O` it is inactive: -5.25%. The result for `O=[N+]([O-])c1ccc2c(c1)nnn2O` reads inactive: 6.9%. The result for `CN(C(=O)Cc1ccc(Cl)c(Cl)c1)[C@H]1CC[C@@]2(CCCO2)C[C@@H]1N1CCCC1` reads inactive: -5.18%; that for `N#CCCN(C(=O)COC(=O)C(O)(c1ccccc1)c1ccccc1)c1ccc(F)cc1`, inactive: -5.59%; that for `CN(C(=O)Cc1ccccc1)[C@@H]1CC[C@]2(CCCO2)C[C@H]1N1CCCC1`, inactive: -2.48%. For `CCOP1(=S)c2c(C)nn(CCC#N)c2N=C(c2ccc(F)cc2)N1C` (centres undefined), the inhibition is inactive: -11.2%. The figure for `NC(=O)Nc1ccc([As](=O)(O)O)cc1` is inactive: -8.1%; for `O=[As](O)(c1cccc(O)c1)c1cccc(O)c1` it is inactive: 0.97%; for `Cc1cccc(OCC(=O)OC2CN3CCC2CC3)c1` (centres undefined) it is inactive: 3.77%. With `COc1cc(C(=O)NCC2(N3CCOCC3)CCCCC2)cc(Cl)c1OC(C)C`, the inhibition is inactive: 11%.

Turning to `O=[As](O)(O)c1cccnc1`, the inhibition was inactive: -0.92%. The figure for `CS(=O)(=O)c1ccc(Cl)c(NC(=O)COC(=O)C(O)(c2ccccc2)c2ccccc2)c1` is inactive: -8.46%; for `O=C(OC1CN2CCC1CC2)c1ccc(Cl)cc1` (centres undefined) it is inactive: -1.19%; for `COc1cc(C2NCCC3(OCCO3)C2(C)C)cc(OC)c1OC` (centres undefined) it is inactive: -20.8%. The result for `CCOP(=O)(Nc1cccc2ccccc12)OCC` reads inactive: 2.86%. The figure for `CCCOP(=S)(Nc1nc(N)cc(=O)[nH]1)OCCC` is inactive: 26.9%.

For the compound `Cc1ccc(NCCc2c([N+](=O)[O-])cc([N+](=O)[O-])cc2[N+](=O)[O-])cc1`, the inhibition was inactive: 8.35%. As for `Nc1cccc2c([As](=O)(O)O)cccc12`, the inhibition was active: 57.5%. Consider `Clc1n[nH]nc1-c1nn[nH][15n]1`, for which the inhibition is inactive: 3.28%.

In the case of `O=P1(N(CCCl)CCCl)NCCC(C(F)(F)F)O1` (centres undefined), the inhibition is inactive: -1.69%.

As for `CC(C)(C)C(=O)NC(Sc1ncccn1)C(Cl)(Cl)Cl` (centres undefined), the inhibition is inactive: 11.6%. The figure for `CN(CCCl)Cc1cc(Cl)c(NC2=NCCN2)c(Cl)c1` is inactive: 0.03%; for `CCOP(=O)(Nc1ccc(C)cn1)OCC` it is inactive: -17.3%.

Consider `CCC1=CC2Cc3nc4ccc(Cl)cc4c(N)c3C(C1)C2` (centres undefined), for which the inhibition is inactive: 9.44%. Turning to `O=P1(Nc2ccccn2)COc2ccccc2OC1`, the inhibition was inactive: 9.69%. The figure for `CCOP(=O)(NC(=NC(C)c1ccccc1)NC(C)c1ccccc1)OCC` (centres undefined) is inactive: 4.68%. On to `CC1(CBr)Cn2c(nc3ccccc3c2=O)S1` (centres undefined), for which the inhibition was inactive: 3.9%. The result for `CN(C(=O)Cc1ccc(Cl)c(Cl)c1)[C@@H]1CCCC[C@H]1N1CCCC1` reads inactive: 0.56%. The figure for `CC(C)/C=N\N=C(\N)N[N+](=O)[O-]` is inactive: -2.45%; for `CN(C(=O)Cc1ccc(Cl)c(Cl)c1)C1CCCC[C@@H]1N1CCCC1` (some centres undefined) it is inactive: 2.47%; for `COc1ccccc1CNC(=O)COC(=O)C(O)(c1ccccc1)c1ccccc1` it is inactive: 19.7%. The figure for `O=C(/C=C/c1ccccc1)OC1CN2CCC1CC2` (centres undefined) is inactive: -7.12%; for `CCCC1OP(=O)(Nc2ccccc2)OCC1CC` (centres undefined) it is inactive: 9.6%. Regarding `CN(C)C1(CNC(=O)c2ccc(S(C)(=O)=O)cc2)CCCCC1`, the inhibition is inactive: 7.08%.

Consider `Cc1nn(-c2ccccc2)c2c1P(=O)(N1CCOCC1)N(C)C(c1ccccc1)=N2` (centres undefined), for which the inhibition is inactive: -13%. The figure for `Cc1ccc(C(=O)OC2CN3CCC2CC3)cc1` (centres undefined) is inactive: -6.79%; for `CC1CCC(C(C)C)C(OP(=O)(Nc2ccccn2)c2ccccc2)C1` (centres undefined) it is inactive: 17.6%. Take `NS(=O)(=O)c1cccc(NC(=O)COC(=O)C(O)(c2ccccc2)c2ccccc2)c1`: the inhibition was inactive: 5.14%. The result for `O=P1(Nc2ccc(Br)cn2)COc2ccccc2OC1` reads inactive: -3.46%; that for `Cc1ccc(OCC(=O)OC2CN3CCC2CC3)cc1` (centres undefined), inactive: 10%; that for `O=[As](O)(c1cccs1)c1cccs1`, inactive: -6.4%. On to `Nc1cccc([As](=O)(O)c2ccccc2)c1`, for which the inhibition is inactive: 3.17%. The figure for `O=P1(Nc2ncccn2)COc2ccccc2OC1` is inactive: 8.91%; for `Cc1ccc(S(=O)(=O)N(CCCN)CCCc2c(C)nc(N)[nH]c2=O)cc1` it is inactive: 2.27%.
